Data from US20100093620A1, “TYROSINE-RICH CONOPEPTIDES” (published 2010).

By UniProt entry, the sequences of proteins in these tests, tags left out.
UniProt P17658, whole entry, looked up: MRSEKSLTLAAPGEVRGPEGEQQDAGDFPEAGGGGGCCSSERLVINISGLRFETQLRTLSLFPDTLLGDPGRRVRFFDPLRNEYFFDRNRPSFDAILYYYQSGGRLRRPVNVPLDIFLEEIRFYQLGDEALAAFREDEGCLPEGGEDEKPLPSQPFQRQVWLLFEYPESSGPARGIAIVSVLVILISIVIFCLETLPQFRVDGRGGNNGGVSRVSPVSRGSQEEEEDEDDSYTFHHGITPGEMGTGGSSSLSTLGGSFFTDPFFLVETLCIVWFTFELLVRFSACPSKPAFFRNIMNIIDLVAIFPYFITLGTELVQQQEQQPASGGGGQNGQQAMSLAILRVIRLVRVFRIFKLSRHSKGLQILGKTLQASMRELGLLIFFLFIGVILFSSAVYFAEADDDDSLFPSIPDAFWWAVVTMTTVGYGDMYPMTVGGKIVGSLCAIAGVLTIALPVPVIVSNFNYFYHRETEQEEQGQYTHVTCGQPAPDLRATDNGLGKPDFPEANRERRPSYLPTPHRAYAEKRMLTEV
UniProt P22460, whole entry, looked up: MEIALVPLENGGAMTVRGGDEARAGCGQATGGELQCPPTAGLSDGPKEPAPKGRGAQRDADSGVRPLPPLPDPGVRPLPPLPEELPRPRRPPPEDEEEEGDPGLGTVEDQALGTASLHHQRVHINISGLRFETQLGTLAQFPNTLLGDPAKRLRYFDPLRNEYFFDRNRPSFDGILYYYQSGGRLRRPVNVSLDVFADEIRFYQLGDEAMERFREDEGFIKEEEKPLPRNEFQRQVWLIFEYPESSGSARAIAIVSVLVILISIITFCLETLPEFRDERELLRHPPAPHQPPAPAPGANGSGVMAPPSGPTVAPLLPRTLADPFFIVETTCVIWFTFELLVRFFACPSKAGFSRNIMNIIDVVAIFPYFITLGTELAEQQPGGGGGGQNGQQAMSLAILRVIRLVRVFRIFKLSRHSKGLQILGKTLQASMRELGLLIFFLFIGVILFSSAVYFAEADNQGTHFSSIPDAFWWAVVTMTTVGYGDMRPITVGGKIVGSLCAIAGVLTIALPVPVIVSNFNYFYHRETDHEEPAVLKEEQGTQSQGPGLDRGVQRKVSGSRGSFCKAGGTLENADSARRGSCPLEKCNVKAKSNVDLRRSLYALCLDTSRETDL
UniProt P22459, whole entry, looked up: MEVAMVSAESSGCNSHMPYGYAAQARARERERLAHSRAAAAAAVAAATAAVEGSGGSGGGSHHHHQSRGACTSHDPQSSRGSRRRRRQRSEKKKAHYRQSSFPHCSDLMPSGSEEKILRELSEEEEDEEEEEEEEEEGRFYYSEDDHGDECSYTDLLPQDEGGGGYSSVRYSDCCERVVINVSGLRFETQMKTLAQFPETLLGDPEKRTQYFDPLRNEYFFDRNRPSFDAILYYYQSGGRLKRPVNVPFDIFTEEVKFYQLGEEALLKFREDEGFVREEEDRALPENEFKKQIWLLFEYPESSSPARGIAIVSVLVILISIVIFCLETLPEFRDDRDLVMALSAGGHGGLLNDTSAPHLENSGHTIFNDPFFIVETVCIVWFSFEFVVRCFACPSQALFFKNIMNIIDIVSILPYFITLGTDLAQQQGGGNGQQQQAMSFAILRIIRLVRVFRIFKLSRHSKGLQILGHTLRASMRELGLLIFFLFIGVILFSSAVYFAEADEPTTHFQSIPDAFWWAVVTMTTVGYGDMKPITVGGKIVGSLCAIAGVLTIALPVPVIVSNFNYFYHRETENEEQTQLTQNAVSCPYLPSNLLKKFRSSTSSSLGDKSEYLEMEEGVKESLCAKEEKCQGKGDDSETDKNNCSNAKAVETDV
UniProt P22001, whole entry, looked up: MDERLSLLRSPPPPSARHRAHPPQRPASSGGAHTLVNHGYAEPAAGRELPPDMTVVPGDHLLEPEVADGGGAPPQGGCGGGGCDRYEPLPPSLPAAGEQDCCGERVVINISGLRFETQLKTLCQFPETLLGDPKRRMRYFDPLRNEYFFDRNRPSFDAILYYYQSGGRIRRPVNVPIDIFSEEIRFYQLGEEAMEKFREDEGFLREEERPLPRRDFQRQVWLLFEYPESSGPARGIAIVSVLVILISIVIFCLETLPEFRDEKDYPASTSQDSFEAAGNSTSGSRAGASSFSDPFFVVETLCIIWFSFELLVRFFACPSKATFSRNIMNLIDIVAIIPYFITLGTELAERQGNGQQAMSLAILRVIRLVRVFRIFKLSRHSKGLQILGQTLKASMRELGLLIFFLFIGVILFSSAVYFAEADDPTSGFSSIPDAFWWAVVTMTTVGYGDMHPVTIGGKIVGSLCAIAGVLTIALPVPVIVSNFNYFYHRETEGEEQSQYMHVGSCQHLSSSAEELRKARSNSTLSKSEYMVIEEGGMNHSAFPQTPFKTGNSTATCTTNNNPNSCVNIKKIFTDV
UniProt P16389, whole entry, looked up: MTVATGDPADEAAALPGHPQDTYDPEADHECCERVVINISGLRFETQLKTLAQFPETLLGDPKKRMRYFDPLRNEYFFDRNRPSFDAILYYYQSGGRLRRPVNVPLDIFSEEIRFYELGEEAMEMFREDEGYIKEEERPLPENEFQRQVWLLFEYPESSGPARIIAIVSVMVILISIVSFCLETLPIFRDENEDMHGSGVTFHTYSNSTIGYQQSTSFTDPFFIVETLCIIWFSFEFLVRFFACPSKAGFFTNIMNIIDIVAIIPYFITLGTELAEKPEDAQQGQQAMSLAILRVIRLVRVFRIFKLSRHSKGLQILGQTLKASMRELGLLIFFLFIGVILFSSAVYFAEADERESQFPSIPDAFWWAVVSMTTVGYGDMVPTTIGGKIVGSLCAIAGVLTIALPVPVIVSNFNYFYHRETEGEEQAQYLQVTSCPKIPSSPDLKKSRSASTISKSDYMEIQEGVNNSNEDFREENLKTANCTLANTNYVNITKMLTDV

Assays:
mice (Swiss-Webster) = test: Intracranial injection in mice, mouse-drop assay
Kv1.6 [1] = biological target: T1, Kv1.6 (Homo sapiens, UniProt P17658); test: Initial screening on channels expressed in skinned Xenopus oocytes; conditions: 1 μM
Kv1.5 = Kv1.5 (Homo sapiens, UniProt P22460); conditions: read-out: IC50 (95% Confidence Interval) Kv1.5; unskinned Xenopus oocytes
Kv1.4 = Kv1.4 (Homo sapiens, UniProt P22459); conditions: read-out: IC50 (95% Confidence Interval) Kv1.4; unskinned Xenopus oocytes
C. elegans = test: Microinjection into the pseudocoelomic region of C. elegans; conditions: ˜10 pmol per worm
Kv1.3 = Kv1.3 (Homo sapiens, UniProt P22001); conditions: read-out: IC50 (95% Confidence Interval) Kv1.3; unskinned Xenopus oocytes
Kv1.2 = Kv1.2 (Homo sapiens, UniProt P16389); conditions: for IC50: read-out: IC50 (95% Confidence Interval) Kv1.2, unskinned Xenopus oocytes
Kv1.6 [2] = biological target: T1, Kv1.6
[3] = system: noradrenaline- and ATP-mediated responses of rat prostatic vas deferens; conditions: 10 μM
[4] = ratio of IC50 values versus CPY-Fe1

## CC[C@H](C)[C@H](NC(=O)[C@H](Cc1c[nH]cn1)NC(=O)[C@@H](NC(=O)[C@H](Cc1ccc(O)cc1)NC(=O)[C@H](Cc1ccc(O)cc1)NC(=O)[C@H](Cc1ccc(O)cc1)NC(=O)[C@@H]1CCCN1C(=O)[C@H](CCC(N)=O)NC(=O)[C@H](CCCCN)NC(=O)[C@H](Cc1c[nH]cn1)NC(=O)[C@H](CC(C)C)NC(=O)[C@H](Cc1ccccc1)NC(=O)[C@H](CCCNC(=N)N)NC(=O)[C@@H](NC(=O)[C@H](Cc1ccccc1)NC(=O)[C@H](Cc1ccc(O)cc1)NC(=O)[C@H](CCCNC(=N)N)NC(=O)[C@H](Cc1c[nH]c2ccccc12)NC(=O)[C@H](CC(C)C)NC(=O)[C@H](CCCNC(=N)N)NC(=O)[C@H](Cc1ccc(O)cc1)NC(=O)[C@H](Cc1ccc(O)cc1)NC(=O)[C@H](CO)NC(=O)[C@H](Cc1ccccc1)NC(=O)[C@@H]1CCCN1C(=O)[C@H](Cc1ccc(O)cc1)NC(=O)[C@H](CC(C)C)NC(=O)[C@H](Cc1ccc(O)cc1)NC(=O)[C@@H](NC(=O)CN)[C@@H](C)O)[C@@H](C)O)C(C)C)C(=O)O
Mice (Swiss-Webster); 5 nmol, intracranial
  mice responding with mild to moderate seizures, mouse-drop assay: approximately 50%
Mice (Swiss-Webster); 20 nmol injected per mouse, intracranial
  outcome in mouse-drop assay: most of the mice developed severe seizures and died
Mice (Swiss-Webster); approximately 0.7 nmol of peptide per gram of mouse
  symptoms after intracranial injection: mild symptoms
Mice (Swiss-Webster); ˜1.5 nmol of peptide per gram of mouse, intracranial, one mouse
  duration of seizure after loud acoustic input: 30 s
Kv1.6 [1]
  activity on Kv1.6: active
Kv1.5
  IC50: > 50 µM
Kv1.4
  IC50: > 50 µM
C. elegans
  duration of partial paralysis: 20 min
  worms with partial paralysis: 4 out of 4
Kv1.3
  IC50: > 50 µM
Kv1.2
  IC50: > 30 µM
Kv1.6 [2]
  IC50: 8.8 µM
[3]
  effect on noradrenaline- and ATP-mediated contractile responses: did not show any effect

## CC[C@H](C)[C@H](NC(=O)[C@H](Cc1ccc(O)cc1)NC(=O)[C@H](Cc1ccc(O)cc1)NC(=O)[C@@H](NC(=O)[C@@H]1CCCN1C(=O)[C@H](Cc1ccc(O)cc1)NC(=O)[C@H](CCCNC(=N)N)NC(=O)[C@H](Cc1c[nH]cn1)NC(=O)[C@H](CC(C)C)NC(=O)[C@H](Cc1ccccc1)NC(=O)[C@H](CCCNC(=N)N)NC(=O)[C@@H](NC(=O)[C@H](CC(C)C)NC(=O)[C@H](Cc1ccc(O)cc1)NC(=O)[C@H](CCCNC(=N)N)NC(=O)[C@H](Cc1ccc(O)cc1)NC(=O)[C@H](CC(C)C)NC(=O)[C@@H](NC(=O)[C@H](Cc1ccc(O)cc1)NC(=O)[C@H](Cc1ccc(O)cc1)NC(=O)[C@H](CCC(N)=O)NC(=O)[C@H](Cc1ccccc1)NC(=O)[C@@H]1CCCN1C(=O)[C@H](Cc1c[nH]cn1)NC(=O)[C@H](CC(C)C)NC(=O)[C@H](Cc1ccccc1)NC(=O)[C@H](CCCNC(=N)N)NC(=O)[C@H](C)N)[C@@H](C)O)[C@@H](C)O)[C@@H](C)CC)C(=O)N[C@@H](CCCNC(=N)N)C(=O)N[C@@H](Cc1ccc(O)cc1)C(=O)O
Kv1.5
  IC50: > 50 µM
Kv1.4
  IC50: > 50 µM
Kv1.3
  IC50: > 50 µM
Kv1.2; [4]
  more active than CPY-Fe1 on Kv1.2: > 15 fold
Kv1.2
  IC50: 2 µM
Kv1.6 [2]
  IC50: 0.17 µM
  selectivity within the Kv1 subfamily: highly selective for the Kv1.6 subtype
Kv1.6 [2]; [4]
  more active than CPY-Fe1 on Kv1.6: 50 fold
Kv1.6 [2]; versus pl14a (κJ-conotoxin PIXIVA), from the same venom
  more potent on Kv1.6 than pl14a: 18 fold
